Results of unrelated studies side by side (data: NIAID ChemDB).

Common to all: whole-cell or culture tests; agent: Cryptococcus neoformans

Conditions beyond the fields shown may differ between rows. ECn is the concentration giving n% inhibition of infection, replication or growth. A number after MIC or MFC names an inhibition level or a share of isolates. Blank or dashed fields: not listed here.

smiles,measure,method,strain or isolate,value
Oc1cccc(C=Nc2ccccc2O)c1,MIC,broth dilution,28JF,5.7 µg/mL
O=C1/C(=C/c2ccc3c(c2)OCO3)CSc2ccc(Cl)cc21,MIC,,25,12.5 µg/mL
Oc1ccccc1N=Cc1ccc(O)c(O)c1O,MIC,broth dilution,ATCC 24067,11.3 µg/mL
CN[C@H]1CC[C@@H](c2ccc(Cl)c(Cl)c2)c2ccccc21,MFC,broth dilution,92C,10 µg/mL
C[C@@H](c1nc(-c2ccc(C#N)cc2)cs1)[C@](O)(Cn1cnnc1)c1ccc(F)cc1F,MFC99,,A28201,4 µg/mL
COc1ccc(/C=C2\CSc3ccccc3C2=O)cc1OC,MIC,,Farwania,100 µg/mL
CCOC(=O)c1c(C)nc(NCCCNc2ccnc3cc(Cl)ccc23)nc1-c1ccccc1,MIC99,,C-3-1,2 µg/mL
COc1ccc(/C=C2\CCc3ccccc3C2=O)cc1,MIC,,Farwania,100 µg/mL
CCC(C)n1ncn(-c2ccc(N3CCN(c4ccc(OC[C@H]5CO[C@](Cn6cncn6)(c6ccc(Cl)cc6Cl)O5)cc4)CC3)cc2)c1=O,MIC,broth dilution,Clinical isolate (IM 983036),<0.015 µg/mL
Oc1ccc(O)c(C=Nc2ccccc2O)c1,MIC,broth dilution,ATCC 24067,8 µg/mL
COc1ccc2c(c1)C(=O)/C(=C/c1ccc3c(c1)OCO3)CS2,MIC,,Farwania,25 µg/mL
Oc1ccccc1N=Cc1ccc2c(c1)OCO2,MIC99,,C-3-1,4 µg/mL
Cc1ccc(/C=C2\CSc3ccccc3C2=O)cc1,MIC,,25,50 µg/mL
CCOC(=O)c1cnc(NCCCCNc2ccnc3cc(Cl)ccc23)nc1C,MIC99,,VM-MCMMPI,8 µg/mL
C[C@@H](n1cnc2cc(Cl)ccc2c1=O)[C@](O)(Cn1cncn1)c1ccc(F)cc1F,MIC,,Isolate 124.96,0.0024 µg/mL
Cn1nc(Cc2ccc(Cl)cc2)c2ccccc2c1=O,MIC50,broth dilution,Clinical isolate (IM 972724),3.9 µg/mL
Oc1ccccc1C=Nc1ccccc1O,MIC,broth dilution,C-3-1,4 µg/mL
O=C1/C(=C/c2ccc(F)cc2)CCc2ccccc21,MIC,,Farwania,25 µg/mL
C[C@@H](c1ncncc1F)[C@](O)(Cn1cncn1)c1ccc(F)cc1F,MIC,broth dilution,B 34336,0.063 µg/mL
CC(C(O)(Cn1cncn1)c1ccc(F)cc1F)S(C)(=O)=O,EC50,,R715 (AZOLE-R),3.5 µM
COc1ccc(/C=C2\COc3ccccc3C2=O)cc1OC,MIC,,25,25 µg/mL

For reference, 2 entries again:

smiles	measure	method	strain or isolate	value
C[C@@H](c1ncncc1F)[C@](O)(Cn1cncn1)c1ccc(F)cc1F	MIC	broth dilution	B 34336	0.063 µg/mL
CCOC(=O)c1cnc(NCCCCNc2ccnc3cc(Cl)ccc23)nc1C	MIC99		VM-MCMMPI	8 µg/mL